From patent US11331351B2, “Bacillus strains improving health and performance of production animals” (priority 2015, dated 2022)

System: S. aureus ATCC 29213
Details: control strain

Gentamycin
MIC 1 (replicate MIC 1): 0.5 µg/mL
MIC 2 (replicate MIC 2): 0.5 µg/mL
MIC 3 (replicate MIC 3): 0.5 µg/mL
MIC 4 (replicate MIC 4): 1 µg/mL
MIC 5 (replicate MIC 5): 1 µg/mL
